Compound potency records, mixed from different reports. Data source: NIAID ChemDB in PubChem.

Common to all: growth or infection tests; species: HIV-1; read-out: EC50

Conditions beyond the fields shown may differ between rows. An empty or dashed field is not shown. ECn: concentration that inhibits the pathogen or its effect by n%. Two numbers with a dash give a range or band.

| compound | strain or isolate | setting | cell line | changes | value |
|---|---|---|---|---|---|
| Cc1c(F)cccc1C(=O)N[C@@H](Cc1ccccc1)[C@H](O)C(=O)N1C[C@@H](Cl)C[C@H]1C(=O)NC(C)(C)C | IIIB | - | CEM | - | >0.5 µM |
| [N-]=[N+]=N[C@H]1C[C@H](n2cc(/C(Cl)=C\I)c(=O)[nH]c2=O)O[C@@H]1CO | - | - | PBMC | - | 2.7 µM |
| Cc1cc(S(N)(=O)=O)ccc1NC(=O)COc1ccc(Cl)cc1C(=O)c1cc(C#N)cc(C(=O)O)c1 | - | - | HeLa | Y181C | >2 µM |
| Cc1cn([C@H]2C[C@H](N=[N+]=[N-])[C@@H](CO)O2)c(=O)[nH]c1=O | - | - | PBMC | - | 0.016 µM |
| COC(=O)c1cccc2[nH]cc(C(O)(C(=O)OC)C(F)(F)F)c12 | IIIB | - | TZM-bl | - | >96.2 µM |
| CC(=O)OC[C@@H]1C[C@H](n2cnc3c(N)ncnc32)CO1 | - | - | MT-4 | - | 10–20 µM |
| Nc1ccn([C@H]2CC[C@@H](CO)O2)c(=O)n1 | NL4-3 | - | MT-2 | INTG-G140S | 0.025 µM |
| O=C(O)P(=O)(O)O | HXB2 | - | MT-2 | Remodeled TAMs (K70G V75T L228R K219R) | 112.3 µM |
| CNC(=O)c1nc([C@]2(C)CSC([C@]3(C)CSC([C@]4(C)CSC(/C=C/c5ccccc5)=N4)=N3)=N2)oc1C | - | - | - | - | 0.0047 µM |
| Cc1cn([C@H]2C[C@H](CO)[C@@H](O)C2)c(=O)[nH]c1=O | - | - | CEM + CEM/0 | - | 3.83 µM |
| CCCC(=O)O[C@H]1CN2CC[C@H](O)[C@@H]2[C@@H](O)[C@@H]1O | RF | - | H9 | - | <4 µM |
| O=C1N(Cc2ccc3n[nH]nc3c2)[C@H](Cc2ccccc2)[C@H](O)[C@@H](O)[C@@H](Cc2ccccc2)N1Cc1ccc2n[nH]nc2c1 | RF | - | MT-2 | - | <0.53 µM |
| CCOP(=O)(/C=C\n1cc(I)c(=O)[nH]c1=O)OCC | IIIB | - | CEM + CEM-SS | - | >200 µM |
| O=C1N(Cc2ccc3[nH]ncc3c2)[C@H](Cc2ccccc2)[C@H](O)[C@@H](O)[C@@H](Cc2ccccc2)N1Cc1ccc2[nH]ncc2c1 | RF | - | MT-2 | - | <0.008 µM |
| O=C(Nc1nc2ccccc2[nH]1)c1cccc(CN2C(=O)N(Cc3cccc(C(=O)Nc4nc5ccccc5[nH]4)c3)[C@H](Cc3ccc(OCc4ccccc4)cc3)[C@H](O)[C@@H](O)[C@H]2Cc2ccc(OCc3ccccc3)cc2)c1 | RF | 3 d | MT-2 | - | <0.125 µM |
| Cc1cn([C@H]2CC[C@@H](O)[C@H]2CO)c(=O)[nH]c1=O | - | - | CEM + CEM/0 | - | >250 µM |
| Cc1cc(S(N)(=O)=O)ccc1NC(=O)COc1ccc(Cl)cc1C(=O)c1cc(N)cc(C#N)c1 | - | - | HeLa | K103N | 0.01 µM |
| CC(C)(C)NC(=O)[C@H]1N(C(=O)[C@@H](O)[C@H](Cc2ccccc2)NC(=O)[C@H](CC(N)=O)NC(=O)COc2cccc(Nc3ccccc3)c2)CSC1(C)C | IIIB | - | CEM + CEM-SS | PR-V32I L33F K45I F53L A71V I84V | 0.04 µM |
| CCOC(=O)C(O)(c1cn(C)c2ccccc12)C(F)(F)F | IIIB | - | TZM-bl | - | 0.309 µM |
| O=c1[nH]c(=O)n(/C=C\P(=O)(O)O)cc1CO | IIIB | - | CEM + CEM-SS | - | >200 µM |
| CCNc1cccnc1N1CCN(C(=O)c2cc3cc(OC)ccc3[nH]2)CC1 | LAV | - | MT-2 | - | 0.39 µM |
| Cc1cc(S(N)(=O)=O)ccc1NC(=O)COc1ccc(Cl)cc1C(=O)c1cc(C#N)cc(C(N)=O)c1 | - | - | HeLa | Y181C | >2 µM |
| Cc1cn([C@@H]2C[C@H](CO)[C@H](O)C2)c(=O)[nH]c1=O | - | - | CEM + CEM/0 | - | >250 µM |
| COc1cc(C#N)cc(C(=O)c2cc(Cl)ccc2OCC(=O)Nc2ccc(S(N)(=O)=O)cc2C)c1 | - | - | HeLa | Y181C | 0.0005 µM |
| CCOP(=O)(/C=C\n1ccc(=O)[nH]c1=O)OCC | IIIB | - | CEM + CEM-SS | - | >200 µM |
| Cc1c(O)cccc1C(=O)N[C@@H](Cc1ccccc1)[C@H](O)C(=O)N1C[C@@H](Cl)C[C@H]1C(=O)NC(C)(C)C | IIIB | - | CEM | - | <0.11 µM |
| Cc1cc(S(N)(=O)=O)ccc1NC(=O)COc1ccc(Cl)cc1C(=O)c1cc(C#N)cc(OC(F)F)c1 | - | - | HeLa | K103N | 0.0012 µM |
| Nc1ccn([C@@H]2O[C@H](CO)C=C2F)c(=O)n1 | 3TC-resistant (RT M184V) | - | PBMC | RT-M184V | <1.8 µM |
| CC[C@@H]1[C@H](O)[C@@H](O)[C@@H](CC)N(Cc2cccc(C(=O)Nc3nc4ccccc4[nH]3)c2)C(=O)N1Cc1cccc(C(=O)Nc2nc3ccccc3[nH]2)c1 | RF | 3 d | MT-2 | - | <0.57 µM |
| Cc1ccnc2c1NC(=O)c1cccnc1N2C1CC1 | - | - | MT-4 | RT-L74V | <0.1 µM |
| Cc1cn([C@@H]2O[C@H](CO[Si](C)(C)C(C)(C)C)C3(OS(=O)(=O)C=C3N)[C@H]2O[Si](C)(C)C(C)(C)C)c(=O)n(C)c1=O | TSAO-m3T-resistant (RT E138K) | - | CEM | RT-E138K | >80 µM |
| CCCc1c(O)cccc1C(=O)N[C@@H](Cc1ccccc1)[C@H](O)C(=O)N1C[C@@H](Cl)C[C@H]1C(=O)NC(C)(C)C | IIIB | - | CEM | - | <0.23 µM |
| Cc1cn([C@H]2C[C@@H](N=[N+]=[N-])C[C@@H](CO)O2)c(=O)[nH]c1=O | IIIB | - | MT-4 | - | >333 µM |
| CCCCCCCCCCCCCCCOP(=O)(OCc1ccc(OC(=O)CCCC)cc1)OP(=O)(O)OP(=O)(O)OC[C@@H]1C=C[C@H](n2cc(C)c(=O)[nH]c2=O)O1 | - | - | - | - | 0.25 µM |
| Cc1cn([C@@H]2O[C@H](CO[Si](C)(C)C(C)(C)C)C3(OC(=O)N(C)C3=N)[C@H]2O[Si](C)(C)C(C)(C)C)c(=O)n(C)c1=O | IIIB | - | MT-4 | - | >175 µM |
| Cc1c(N)cccc1C(=O)N[C@@H](Cc1ccccc1)[C@H](O)C(=O)N1C[C@@H](Cl)C[C@H]1C(=O)NC(C)(C)C | IIIB | - | CEM | - | >0.5 µM |
| CO[P@](=O)(c1cc(C)cc(/C=C/C#N)c1)c1c(C(N)=O)[nH]c2ccc(Cl)c(F)c12 | IIIB | - | MOLT-4 | - | 0.0007 µM |
| Cc1cn([C@H]2C[C@H](N=[N+]=[N-])[C@@H](CO)O2)c(=O)[nH]c1=O | NL4-3 | - | MT-2 | - | 0.02 µM |
| CCSC[C@H]1O[C@@H](n2cc(C)c(=O)[nH]c2=O)C[C@@H]1N=[N+]=[N-] | IIIB | - | MT-4 | - | 0.83 µg/mL |
| CC(C)C[C@@H]1[C@H](O)[C@@H](O)[C@@H](CC(C)C)N(Cc2cccc(C(=O)Nc3nc4ccccc4[nH]3)c2)C(=O)N1Cc1cccc(C(=O)Nc2nc3ccccc3[nH]2)c1 | RF | 3 d | MT-2 | - | <0.059 µM |
| CNC(=O)c1cc(C#N)cc(C(=O)c2cc(Cl)ccc2OCC(=O)Nc2ccc(S(N)(=O)=O)cc2C)c1 | - | - | HeLa | K103N | 0.98 µM |
| Cc1cn(/C=C/P(=O)(O)O)c(=O)[nH]c1=O | IIIB | - | CEM + CEM-SS | - | >200 µM |
| O=[N+]([O-])c1ccccc1S(=O)(=O)c1ccccc1 | LAV | - | CEM + CEM-SS | - | 1.36 µM |
| CCCCCC[C@@H]1[C@H](O)[C@@H](O)[C@@H](CCCCCC)N(Cc2cccc(C(=O)Nc3nc4ccccc4[nH]3)c2)C(=O)N1Cc1cccc(C(=O)Nc2nc3ccccc3[nH]2)c1 | RF | 3 d | MT-2 | - | <0.086 µM |
| Nc1ncnc2c1ncn2[C@H]1C=C[C@@H](OCP(=O)(O)O)O1 | - | - | MT-4 | - | 4.3 µM |
| Cc1cn([C@H]2C[C@H](N=[N+]=[N-])[C@@H](CSCCC(=O)O)O2)c(=O)[nH]c1=O | IIIB | - | MT-4 | - | 0.31 µg/mL |
| Nc1nc2c(ncn2[C@H]2CC[C@@H](CO)O2)c(=O)[nH]1 | TSAO-m3T-resistant (RT E138K) | - | CEM | RT-E138K | 0.77 µM |
| CC(C)c1nc(CN(C)C(=O)N[C@H](C(=O)N[C@@H](Cc2ccccc2)C[C@H](O)[C@H](Cc2ccccc2)NC(=O)OCc2cncs2)C(C)C)cs1 | pNL4-3 luciferase reporter | - | - | - | 0.0196 µM |
| CC(=O)Nc1cc(C#N)cc(C(=O)c2cc(Cl)ccc2OCC(=O)Nc2ccc(S(N)(=O)=O)cc2C)c1 | - | - | HeLa | K103N | 0.23 µM |
| O=C1N(Cc2ccc3[nH]c(=O)oc3c2)[C@H](Cc2ccccc2)[C@H](O)[C@@H](O)[C@@H](Cc2ccccc2)N1Cc1ccc2[nH]c(=O)oc2c1 | RF | - | MT-2 | - | <0.04 µM |
| C=O.Cc1cn(C2CC(N(N)N)C(COP(N)(=O)O)O2)c(=O)[nH]c1=O | - | - | MT-4 | - | 0.339 µM |
| Nc1ncnc2c1ncn2/C=C/P(=O)(O)O | IIIB | - | CEM + CEM-SS | - | >200 µM |
| COc1ccc(C[C@@H]2[C@H](O)[C@@H](O)[C@@H](Cc3ccc(OC)cc3)N(Cc3cccc(C(=O)Nc4nc5ccccc5[nH]4)c3)C(=O)N2Cc2cccc(C(=O)Nc3nc4ccccc4[nH]3)c2)cc1 | RF | 3 d | MT-2 | - | <0.019 µM |
| COC(=O)C(O)(c1c[nH]c2ccc(Cl)cc12)C(F)(F)F | IIIB | - | TZM-bl | - | 5.607 µM |
| CCCc1cc(=O)oc2c3c(c4c(c12)OC(C)(C)C=C4)OC(CCl)CC3=O | NL4-3 | - | PBMC | - | 0.052 µM |
| Cc1cn([C@H]2C[C@H](N=[N+]=[N-])[C@@H](CO)O2)c(=O)[nH]c1=O | 3TC-resistant (RT M184V) | - | PBMC | RT-M184V | <0.003 µM |
| CON(C)C(=O)c1cc(C#N)cc(C(=O)c2cc(Cl)ccc2OCC(=O)Nc2ccc(S(N)(=O)=O)cc2C)c1 | - | - | HeLa | V106A | 0.87 µM |
| CCOP(=O)(/C=C\n1cc(C)c(=O)[nH]c1=O)OCC | IIIB | - | CEM + CEM-SS | - | >200 µM |
| O=C1Nc2ccc(CN3C(=O)N(Cc4ccc5c(c4)C(=O)C(=O)N5)[C@H](Cc4ccccc4)[C@H](O)[C@@H](O)[C@H]3Cc3ccccc3)cc2C1=O | RF | - | MT-2 | - | <8.5 µM |
| Cc1cn([C@@H]2O[C@H](CO[Si](C)(C)C(C)(C)C)C3(OC(=O)N=C3N)[C@H]2O[Si](C)(C)C(C)(C)C)c(=O)[nH]c1=O | IIIB | - | MT-4 | - | >35 µM |
| CCOC(=O)C(O)(c1c[nH]c2cccc(O)c12)C(F)(F)F | IIIB | - | TZM-bl | - | >96.2 µM |
| CCC[C@@]1(CCc2ccccc2)CC(O)=C([C@H](CC)c2cccc(NS(=O)(=O)c3ccc(C(F)(F)F)cn3)c2)C(=O)O1 | IIIB | - | MT-4 | - | 0.7 µM |
| CC(C)c1cc2c(c(O)c1O)[C@@]1(C(=O)O)CCCC(C)(C)C1CC2 | NL4-3 WT | - | MT-4 | - | 0.011 µM |
| Cc1cccc2c1OP(=O)(OC[C@@H]1[C@@H](O)CC[C@@H]1n1cc(C)c(=O)[nH]c1=O)OC2 | - | - | CEM + CEM/0 | - | 27.5 µM |
| [N-]=[N+]=N[C@H]1C[C@H](n2cc(C#CI)c(=O)[nH]c2=O)O[C@@H]1CO | - | - | PBMC | - | 2.3 µM |

7 of the rows above, restated:

compound	strain or isolate	setting	cell line	changes	value
Cc1cc(S(N)(=O)=O)ccc1NC(=O)COc1ccc(Cl)cc1C(=O)c1cc(C#N)cc(OC(F)F)c1	-	-	HeLa	K103N	0.0012 µM
O=C1N(Cc2ccc3n[nH]nc3c2)[C@H](Cc2ccccc2)[C@H](O)[C@@H](O)[C@@H](Cc2ccccc2)N1Cc1ccc2n[nH]nc2c1	RF	-	MT-2	-	<0.53 µM
CCCC(=O)O[C@H]1CN2CC[C@H](O)[C@@H]2[C@@H](O)[C@@H]1O	RF	-	H9	-	<4 µM
Cc1cn([C@@H]2O[C@H](CO[Si](C)(C)C(C)(C)C)C3(OC(=O)N(C)C3=N)[C@H]2O[Si](C)(C)C(C)(C)C)c(=O)n(C)c1=O	IIIB	-	MT-4	-	>175 µM
Cc1cc(S(N)(=O)=O)ccc1NC(=O)COc1ccc(Cl)cc1C(=O)c1cc(C#N)cc(C(N)=O)c1	-	-	HeLa	Y181C	>2 µM
CC(C)C[C@@H]1[C@H](O)[C@@H](O)[C@@H](CC(C)C)N(Cc2cccc(C(=O)Nc3nc4ccccc4[nH]3)c2)C(=O)N1Cc1cccc(C(=O)Nc2nc3ccccc3[nH]2)c1	RF	3 d	MT-2	-	<0.059 µM
Cc1cn([C@@H]2O[C@H](CO[Si](C)(C)C(C)(C)C)C3(OC(=O)N=C3N)[C@H]2O[Si](C)(C)C(C)(C)C)c(=O)[nH]c1=O	IIIB	-	MT-4	-	>35 µM